Assay: Selectivity ratio of IC50 for human PAH to IC50 for Legionella pneumophila PAH

Compound `c1ccc2c(c1)CSc1sccc1C2n1ccnc1` (stereo unspecified) has a Ratio IC50 of 200.
